For test [1], the system named is A/red-shouldered hawk/Minnesota/22-012000-004/2022 (PA K29R). Particulars: read-out: Mean EC50 ± SD; HINT; MDCK-SIAT1 cells; hawk/MN-4/22, PA K29R.
Test [2] deals with clade 2.3.4.4b A(H5N1) viruses that lack flagged PA mutations (n = 17). Conditions: HINT and IRINA; baseline.

For orientation: EC50 means the midpoint of the concentration-response curve. Take `O=C1c2c(O)c(=O)ccn2N([C@@H]2c3ccccc3SCc3c2ccc(F)c3F)[C@@H]2COCCN12` [Baloxavir, baloxavir acid]: the EC50 in test [1] is 530 pM. Besides, in test [2], the “median EC50” value is “sub-nanomolar range”.

(Values after article PMC10508830 (Antiviral research, 2023).)
